This is a selection; strong and weak results do not stand in their true shares.
How the values were obtained:
Assay type in all cases: functional
[1] = molecular target: Methionyl-tRNA synthetase, putative (Leishmania donovani (strain BPK282A1)) (UniProt E9BF75); assay: Leishmania donovani Methionine tRNA synthetase (LdMetRS):v6. Primary screen assay; parameters: conc 80 nM, time 150 minutes
[2] = molecular target: Coenzyme A biosynthesis bifunctional protein CoaBC (Mycobacterium tuberculosis (strain ATCC 25618 / H37Rv)) (UniProt P9WNZ1); assay: Biomol Green assay for MtCoaBC inhibitor, OD650 read; parameters: scale not given: in the data most compounds retested in dose-response had high values; details: 30 µM
[3] = molecular target: Lysine--tRNA ligase (Plasmodium falciparum (isolate 3D7)) (UniProt Q8IDJ8); assay: Pf-KRS-1 (Lysyl-RNA Synthetase-1, KRS-1, cytosolic KRS) from Plasmodium falciparum. Inhibitor assay, 384 well plate, luminescence read.; parameters: scale not given: direction of the effect not stated beside the values; details: 30 µM; note: in the data most compounds retested in dose-response had high values
[4] = molecular target: Histidine--tRNA ligase (Trypanosoma cruzi (strain CL Brener)) (UniProt Q4DA54); assay: Trypanosoma cruzi histidyl tRNA synthetase (Tc-HisRS); parameters: scale not given: direction of the effect not stated beside the values; details: 30 µM
[5] = molecular target: Tryptophan--tRNA ligase (Mycobacterium tuberculosis (strain ATCC 25618 / H37Rv)) (UniProt P9WFT3); assay: Biochemical assay for Mt-TrpRS; parameters: scale not given: direction of the effect not stated beside the values; details: 10 µM
[6] = molecular target: Histidine--tRNA ligase (Leishmania infantum) (UniProt A4I591); assay: Leishmania infantum Histidine tRNA synthetase (LdHisRS); parameters: scale not given: in the data most compounds retested in dose-response had high values; details: 30 µM
[7] = molecular target: Polyketide synthase Pks13 (Mycobacterium tuberculosis (strain ATCC 25618 / H37Rv)) (UniProt I6X8D2); assay: Mycobacterium tuberculosis Polyketide synthase 13 Thioesterase (PKS13); parameters: scale not given: in the data most compounds retested in dose-response had high values; details: 30 µM
[8] = molecular target: ClpP1P2 (Mycobacterium tuberculosis (strain ATCC 25618 / H37Rv)) (UniProt P9WPC5+P9WPC3); assay: in vitro assay to detect presence of AMC directly proportional to the activity of ClpP1P2. GHDDI collaboration.; parameters: scale not given: direction of the effect not stated beside the values; details: 50 µM

Protein sequences, listed by entry. Tags and fused reporters are not part of them. Residues count along the entry.
UniProt E9BF75, entry or part of it: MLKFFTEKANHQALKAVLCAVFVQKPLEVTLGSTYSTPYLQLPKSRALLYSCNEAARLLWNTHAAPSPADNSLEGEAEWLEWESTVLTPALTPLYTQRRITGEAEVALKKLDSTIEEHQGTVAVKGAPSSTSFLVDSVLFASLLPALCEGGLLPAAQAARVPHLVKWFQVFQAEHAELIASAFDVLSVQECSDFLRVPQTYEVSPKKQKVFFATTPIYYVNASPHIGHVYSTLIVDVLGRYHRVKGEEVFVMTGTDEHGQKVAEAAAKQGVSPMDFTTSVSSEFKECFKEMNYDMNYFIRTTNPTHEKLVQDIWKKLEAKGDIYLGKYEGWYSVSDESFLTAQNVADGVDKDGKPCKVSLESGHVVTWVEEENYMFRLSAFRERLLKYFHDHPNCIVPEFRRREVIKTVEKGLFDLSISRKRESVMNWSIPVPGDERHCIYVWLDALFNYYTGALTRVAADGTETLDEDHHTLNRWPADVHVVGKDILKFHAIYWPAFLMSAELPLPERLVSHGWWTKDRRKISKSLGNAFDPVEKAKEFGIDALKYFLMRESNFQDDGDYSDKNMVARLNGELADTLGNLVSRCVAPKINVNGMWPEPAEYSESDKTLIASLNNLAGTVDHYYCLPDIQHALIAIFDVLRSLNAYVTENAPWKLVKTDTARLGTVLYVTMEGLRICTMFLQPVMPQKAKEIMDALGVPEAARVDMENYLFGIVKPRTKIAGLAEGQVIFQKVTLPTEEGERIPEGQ
UniProt P9WNZ1, whole entry: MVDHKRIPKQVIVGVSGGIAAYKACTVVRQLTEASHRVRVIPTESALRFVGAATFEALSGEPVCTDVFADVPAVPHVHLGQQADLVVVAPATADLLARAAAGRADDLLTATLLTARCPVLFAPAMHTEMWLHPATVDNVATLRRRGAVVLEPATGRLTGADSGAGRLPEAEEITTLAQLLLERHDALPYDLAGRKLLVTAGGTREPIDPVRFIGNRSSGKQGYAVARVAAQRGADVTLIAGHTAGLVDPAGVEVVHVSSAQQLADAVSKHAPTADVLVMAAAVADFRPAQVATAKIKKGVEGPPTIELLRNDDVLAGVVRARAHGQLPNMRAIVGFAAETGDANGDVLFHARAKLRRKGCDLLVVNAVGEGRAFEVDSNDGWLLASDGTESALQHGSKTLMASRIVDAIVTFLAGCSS
UniProt Q8IDJ8, 1-583: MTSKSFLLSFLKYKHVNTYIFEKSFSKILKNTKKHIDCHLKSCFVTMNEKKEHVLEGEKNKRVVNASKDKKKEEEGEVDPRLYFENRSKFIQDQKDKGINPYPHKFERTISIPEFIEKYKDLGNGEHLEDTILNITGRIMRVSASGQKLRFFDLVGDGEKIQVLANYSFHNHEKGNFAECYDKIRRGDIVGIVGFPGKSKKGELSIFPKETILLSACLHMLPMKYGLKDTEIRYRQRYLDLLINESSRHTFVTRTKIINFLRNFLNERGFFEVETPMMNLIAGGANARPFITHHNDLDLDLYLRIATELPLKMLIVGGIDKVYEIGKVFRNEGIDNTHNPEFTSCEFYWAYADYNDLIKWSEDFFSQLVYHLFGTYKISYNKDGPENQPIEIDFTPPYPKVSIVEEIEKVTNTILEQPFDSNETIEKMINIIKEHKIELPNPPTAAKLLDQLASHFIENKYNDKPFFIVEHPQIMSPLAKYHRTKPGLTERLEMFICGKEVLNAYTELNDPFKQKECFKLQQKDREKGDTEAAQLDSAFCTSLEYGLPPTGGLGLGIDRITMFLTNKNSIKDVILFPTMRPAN
UniProt Q4DA54, 1-478: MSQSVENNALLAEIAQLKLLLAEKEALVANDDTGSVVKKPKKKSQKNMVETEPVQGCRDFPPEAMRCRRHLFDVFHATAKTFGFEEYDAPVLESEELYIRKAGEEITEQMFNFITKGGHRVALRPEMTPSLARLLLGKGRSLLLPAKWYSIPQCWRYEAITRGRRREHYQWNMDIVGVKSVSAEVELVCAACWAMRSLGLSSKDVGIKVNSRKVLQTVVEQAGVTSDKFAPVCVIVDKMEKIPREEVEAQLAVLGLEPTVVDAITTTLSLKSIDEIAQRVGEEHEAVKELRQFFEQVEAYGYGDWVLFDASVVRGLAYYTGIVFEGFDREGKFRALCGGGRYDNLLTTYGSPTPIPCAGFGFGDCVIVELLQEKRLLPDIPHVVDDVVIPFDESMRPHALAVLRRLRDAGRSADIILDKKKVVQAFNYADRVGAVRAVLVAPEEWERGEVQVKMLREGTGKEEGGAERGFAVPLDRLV
UniProt P9WFT3, whole entry: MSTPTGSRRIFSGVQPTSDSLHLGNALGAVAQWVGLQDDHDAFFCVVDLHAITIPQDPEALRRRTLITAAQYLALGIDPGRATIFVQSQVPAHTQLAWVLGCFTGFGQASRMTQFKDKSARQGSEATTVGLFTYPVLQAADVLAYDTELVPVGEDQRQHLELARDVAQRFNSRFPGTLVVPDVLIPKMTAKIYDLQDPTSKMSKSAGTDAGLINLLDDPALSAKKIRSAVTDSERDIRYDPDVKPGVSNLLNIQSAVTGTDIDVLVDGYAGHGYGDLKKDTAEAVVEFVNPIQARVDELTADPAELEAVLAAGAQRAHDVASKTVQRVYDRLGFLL
UniProt A4I591, 1-473: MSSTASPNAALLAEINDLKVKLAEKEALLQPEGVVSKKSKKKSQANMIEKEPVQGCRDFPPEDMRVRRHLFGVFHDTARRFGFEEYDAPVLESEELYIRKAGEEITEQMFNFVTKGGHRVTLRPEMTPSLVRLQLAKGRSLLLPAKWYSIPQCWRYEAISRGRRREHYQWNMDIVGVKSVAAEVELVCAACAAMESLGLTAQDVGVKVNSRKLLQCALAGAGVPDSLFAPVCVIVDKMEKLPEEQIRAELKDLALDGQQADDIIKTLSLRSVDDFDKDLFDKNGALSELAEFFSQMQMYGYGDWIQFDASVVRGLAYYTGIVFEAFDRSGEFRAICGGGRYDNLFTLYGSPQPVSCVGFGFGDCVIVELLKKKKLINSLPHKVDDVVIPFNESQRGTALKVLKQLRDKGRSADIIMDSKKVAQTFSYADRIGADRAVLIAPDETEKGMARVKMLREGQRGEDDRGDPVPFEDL
UniProt I6X8D2, whole entry: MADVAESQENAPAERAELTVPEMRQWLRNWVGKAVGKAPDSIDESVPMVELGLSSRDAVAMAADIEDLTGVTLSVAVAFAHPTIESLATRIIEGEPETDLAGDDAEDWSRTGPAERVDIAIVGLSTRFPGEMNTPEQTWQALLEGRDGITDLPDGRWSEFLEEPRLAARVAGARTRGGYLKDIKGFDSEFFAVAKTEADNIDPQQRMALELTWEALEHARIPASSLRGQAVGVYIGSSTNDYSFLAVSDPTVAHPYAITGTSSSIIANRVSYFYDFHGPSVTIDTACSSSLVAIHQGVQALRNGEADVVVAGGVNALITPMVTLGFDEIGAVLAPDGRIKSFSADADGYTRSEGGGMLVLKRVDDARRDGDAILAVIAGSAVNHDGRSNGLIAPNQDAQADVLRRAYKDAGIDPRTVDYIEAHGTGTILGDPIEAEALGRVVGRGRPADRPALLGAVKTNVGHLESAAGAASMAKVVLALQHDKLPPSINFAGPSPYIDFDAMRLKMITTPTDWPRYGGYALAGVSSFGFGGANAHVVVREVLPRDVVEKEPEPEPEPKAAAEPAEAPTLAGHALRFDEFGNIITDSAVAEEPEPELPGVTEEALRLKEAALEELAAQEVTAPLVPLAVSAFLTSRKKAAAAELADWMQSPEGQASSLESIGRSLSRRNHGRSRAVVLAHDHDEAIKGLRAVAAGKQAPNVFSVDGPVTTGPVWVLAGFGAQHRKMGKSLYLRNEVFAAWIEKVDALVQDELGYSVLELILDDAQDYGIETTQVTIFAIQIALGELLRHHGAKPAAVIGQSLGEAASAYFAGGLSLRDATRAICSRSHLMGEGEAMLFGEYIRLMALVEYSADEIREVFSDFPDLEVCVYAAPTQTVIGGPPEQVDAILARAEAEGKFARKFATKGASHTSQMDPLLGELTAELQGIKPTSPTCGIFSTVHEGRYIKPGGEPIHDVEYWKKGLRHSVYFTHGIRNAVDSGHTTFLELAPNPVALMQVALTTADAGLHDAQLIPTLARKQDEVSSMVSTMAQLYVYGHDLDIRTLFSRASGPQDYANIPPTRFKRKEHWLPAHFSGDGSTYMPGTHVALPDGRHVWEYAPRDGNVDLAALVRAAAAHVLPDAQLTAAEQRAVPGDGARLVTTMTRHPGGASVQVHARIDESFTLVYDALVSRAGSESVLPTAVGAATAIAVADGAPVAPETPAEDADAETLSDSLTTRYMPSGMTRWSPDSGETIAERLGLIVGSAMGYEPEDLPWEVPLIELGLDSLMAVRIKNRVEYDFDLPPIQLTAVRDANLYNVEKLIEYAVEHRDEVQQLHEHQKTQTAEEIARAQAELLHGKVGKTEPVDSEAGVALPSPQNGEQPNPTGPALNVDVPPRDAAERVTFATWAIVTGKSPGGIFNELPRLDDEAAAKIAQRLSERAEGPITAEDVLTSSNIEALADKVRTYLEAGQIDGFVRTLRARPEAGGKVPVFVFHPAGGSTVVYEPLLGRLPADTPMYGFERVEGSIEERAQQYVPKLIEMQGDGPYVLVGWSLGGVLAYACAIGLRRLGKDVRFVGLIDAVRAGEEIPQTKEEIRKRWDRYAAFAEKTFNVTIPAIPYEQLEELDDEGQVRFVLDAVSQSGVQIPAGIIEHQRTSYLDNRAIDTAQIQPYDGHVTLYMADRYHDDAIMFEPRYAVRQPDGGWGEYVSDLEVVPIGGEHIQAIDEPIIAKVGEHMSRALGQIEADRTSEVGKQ
UniProt P9WPC5, whole entry: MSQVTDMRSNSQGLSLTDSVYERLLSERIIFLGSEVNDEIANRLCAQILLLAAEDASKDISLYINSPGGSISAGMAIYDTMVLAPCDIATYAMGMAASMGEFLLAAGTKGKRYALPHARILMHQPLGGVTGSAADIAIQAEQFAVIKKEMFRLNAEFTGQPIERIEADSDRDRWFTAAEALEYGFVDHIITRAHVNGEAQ
UniProt P9WPC3, whole entry partner: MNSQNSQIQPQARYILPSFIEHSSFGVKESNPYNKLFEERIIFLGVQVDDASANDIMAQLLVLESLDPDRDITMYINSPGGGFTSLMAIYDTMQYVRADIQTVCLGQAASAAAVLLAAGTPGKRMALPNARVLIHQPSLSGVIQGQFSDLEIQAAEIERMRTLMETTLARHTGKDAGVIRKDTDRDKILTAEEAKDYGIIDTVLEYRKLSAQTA

SMILES | inhibition [1] [%] | Percent Effect [2] [%] | Percent Effect [3] [%] | Percent Effect [4] [%] | Percent Effect [5] [%] | Percent Effect [6] [%] | Percent Effect [7] [%] | Percent Effect [8] [%]
COc1ccc(OC)c(NC2CCN(C)CC2)c1 | 3.67 | -19.7 | 6.78 | -0.529 | 2.41 | 20 | -1.39 | 0.0146
COc1ccccc1NC1CCN(Cc2ccc(Br)cc2)CC1 | 6.5 | -3.78 | 4.74 | 8.99 | -2.95 | 9.33 | -13.5 | -5.9
COc1cc(NC2CCNCC2)cc(OC)c1 | 7.1 | -37.8 | 0.401 | 1.59 | 1e-14 | -2.74 | -5.71 | 6.69
CCN1CCC(N(C(=O)c2cc(C)no2)c2ccccc2OC)CC1 | 18 | 10.4 | 12.8 | 5.7 | 0.75 | 21.5 | -22.5 | 3.71
COc1ccc(NC2CCN(C)CC2)cc1OC | 9.89 | -10.3 | 3.37 | 5.2 | -8.93 | 33.3 | -21.2 | 2.57
Cc1ccc(NC2CCN(C(C)c3nnc(C)o3)CC2)cc1 (stereo not given) | 18 | 7.65 | 5.85 | 11.4 | 1.68 | 20.5 | 10.8 | -3.37
COc1ccc(CN2CCC(Nc3ccc(Br)cc3)CC2)cc1OC | -8.01 | -16.7 | 3.09 | 9.85 | 0.89 | 5.62 | -1.86 | -15.4
Cc1cccc(NC2CCN(Cc3nnc(C4CC4)o3)CC2)c1 | 9.77 | 0.407 | 7.82 | 3.7 | -1.69 | 23.5 | -15.4 | 13.6
COc1ccc(CN2CCC(Nc3ccc(Br)cc3)CC2)c(OC)c1 | 9.38 | -5.99 | -0.294 | 7.77 | -0.405 | 3.37 | -0.237 | -15.2
COc1ccccc1NC1CCN(Cc2nc(C)c(C)s2)CC1 | 1.63 | -1.28 | -7.86 | 1.74 | -1.21 | 5 | 0.574 | -14
CCN1CCC(Nc2ccc(OC)c(OC)c2)CC1 | 5.08 | -22.3 | 11.1 | 1.73 | 0.0884 | 76 | -3.92 | 7.72
COc1ccccc1NC1CCN(Cc2scnc2C)CC1 | 3.79 | -1.28 | 0.887 | 0 | -2.5 | 5 | -0.821 | -4.39
Brc1ccccc1NC1CCNCC1 | 13.4 | -13 | 3.12 | 4.12 | 0.308 | 14.3 | -12.7 | 3.84
Cc1nnc(C(C)N2CCC(Nc3ccccc3C)CC2)o1 (stereo not given) | 9.29 | 5.14 | -4.34 | 4.48 | 0.306 | 1.21 | -10.8 | -4.17
CC1(C)CN(C2(CNC(=O)c3cnns3)CCCCC2)CCO1 | 19.3 | -12.5 | 7.91 | 7.22 | -1.39 | 9.89 | 5.56 | 2.11

Source: ChEMBL document CHEMBL3988442, “University of Dundee, Small-Polar-MMV Screening Library” (2021)
